The results in this text go back to US20160053242A1, “THERMOSTABLE NUCLEASE” (priority 2013, published 2016).

In data set [1] the test system is plasmid DNA pET-24a(+) (closed circular double stranded). Briefly: Assay of nuclease activity, substrate specificity: plasmid DNA.
Data set [2] relates to calf thymus dsDNA. Briefly: Assay of nuclease activity, DNA degradation level on agarose gel.
The test system of data set [3] is calf thymus dsDNA. Briefly: Degradation of calf thymus dsDNA by recombinant E. coli expressing Nucyep1 or Nucyep2 (FIG. 4b). The settings on record: E. coli BL21star (DE3)plysS; for Nuclease activity in induced recombinant bacteria: IPTG induced; for Nuclease activity in non-induced recombinant bacteria: without IPTG induction.
A further data set concerns calf thymus ssDNA. Briefly: Assay of nuclease activity, substrate specificity: ssDNA. The following applies: 20 mM Mg2+, Mn2+, Co2+ individually.
A further data set concerns RNA. Briefly: Assay of nuclease activity, substrate specificity: RNA.
The mark [4] stands for this setting: 20 mM Mg2+, Mn2+, Co2+ individually.
The mark [5] stands for this setting: digestion of calf thymus dsDNA at 37° C.

B1: Nucyep1: recombinant Nucyep without peptide signal and stop codon, with C-terminal 6×His-tag; SEQ ID NO. 8 (protein)
chain: MSAPKTILSAPTVTEQNLPAAAIDNCLVGCPTGGSDQTVIRDVYTLNNNSHTKFANWVAYKVTKSSQASNHPRKWAQDPDLPDSDTLAPADYTGANQKLAVDRGHQAPLSLLAGNEDSQALNYLSNITPQKAALNQGAWVRLEDQERNLANRPDVTAVYSVTGPLFERHIATLPAKPTVEIPSGYWKIIFIGTSPDKGQYAAFLMDQNTAKSANFCDYQVNVDTIEAKTNPQLTIWSNLPADVAQIIKSQKGTLAQTIGCDLEHHHHHH
modifications: C-terminal 6xHis tag; Yersinia enterocolitica sub. paleartica
Regarding B1, in data set [1] (setting [4]), the “Nuclease activity on plasmid DNA with metal ion” value is reported as “high nuclease activity”. Besides, the “Nuclease activity on plasmid (circular ds) DNA without addition of metal ions” value in data set [1] (no metal ion added) is recorded as “obligate requirement of divalent Mg^2+, Mn^2+, Co^2+”. The “Best activator metal ion overall” value in the data set with calf thymus dsDNA [2] is “Mn^2+”. The “Nuclease activity at 0° C.” value with calf thymus dsDNA [2] (0° C.) is “works”. Further, in the data set with calf thymus dsDNA [2] (2 mM CuSO4), the “Effect of 2 mM CuSO4 on nuclease activity” value is reported as “completely inhibited”. Further, the “Effect of 2 mM ZnCl2 on nuclease activity” value in the data set with calf thymus dsDNA [2] (2 mM ZnCl2) is reported as “completely inhibited”. In the data set with calf thymus dsDNA [2] (2 mM and 10 mM NaCl, KCl, CoCl2, NiSO4), the “Effect of 2 mM and 10 mM NaCl, KCl, CoCl2, NiSO4 on nuclease activity” value was “did not have obvious effects”. In addition, the “Effect of 10 mM BaCl2 on nuclease activity” value in the data set on calf thymus dsDNA [2] (10 mM BaCl2) was “partly inhibited”. Further, the “Effect of 10 mM CaCl2 on nuclease activity” value in the data set with calf thymus dsDNA [2] (10 mM CaCl2) was “completely inhibited”. In the data set on calf thymus dsDNA [2] (setting [4]), the “Nuclease activity on dsDNA with metal ion” value is reported as “high nuclease activity”. For the same molecule, in the data set on calf thymus dsDNA [2] (0.1% SDS), the “Effect of 0.1% SDS on nuclease activity” value was “completely inhibit”. In addition, the “Effect of 100 mM NaCl, KCl, NiSO4 on nuclease activity” value in the data set with calf thymus dsDNA [2] (100 mM NaCl, KCl, NiSO4 (data not shown)) is recorded as “no effect”. Also, the “Effect of 1 M urea on nuclease activity” value with calf thymus dsDNA [2] (1 M urea) is on record as “had an effect”. In addition, in the data set on calf thymus dsDNA [2] (50% glycerol), the “Effect of 50% glycerol on nuclease activity” value is “small inhibition”. Besides, the “Effect of BSA on nuclease activity” value with calf thymus dsDNA [2] (BSA 0.1 to 1 mg/ml) is “greatly increased the nuclease activity”. Also, in the data set on calf thymus dsDNA [2] (Co2+ 20 mM or 50 mM), the “Effect of Co2+ at 20 mM or 50 mM on nuclease activity” value is reported as “greatly increased the nuclease activity”. In addition, the “Effect of 2 mM EDTA on nuclease activity” value in the data set with calf thymus dsDNA [2] (EDTA 2 mM) is recorded as “did not affect”. The “Effect of 100 mM EDTA on nuclease activity” value in the data set on calf thymus dsDNA [2] (EDTA 100 mM) was “totally inhibited”. Moreover, the “Effect of 5 to 10 mM EDTA on nuclease activity” value in the data set on calf thymus dsDNA [2] (EDTA 5 to 10 mM) is recorded as “slight inhibition effect”. In the data set on calf thymus dsDNA [2] (FIG. 7a), the “pH range in which the enzyme is active” value is listed as 3.6-9.9. The “Optimal Mg2+ concentration to activate the nuclease activity” value with calf thymus dsDNA [2] (Mg2+) is recorded as 10 mM. In the data set on calf thymus dsDNA [2] (Mg2+ 50 mM), the “Effect of 50 mM Mg2+ on enzyme activity” value is given as “the same as with no metal ion”. In addition, the “Effect of 100 mM Mg2+ on nuclease activity” value with calf thymus dsDNA [2] (Mg2+ 100 mM) is “notably diminished”. Besides, the “Optimal Mn2+ concentration” value in the data set with calf thymus dsDNA [2] (Mn2+) was 10 to 20 mM. Besides, the “Effect of 50 mM Mn2+ on nuclease activity” value with calf thymus dsDNA [2] (Mn2+ 50 mM) is on record as “could activate the nuclease activity”. Besides, the “Effect of 100 mM Mn2+ on nuclease activity” value in the data set on calf thymus dsDNA [2] (Mn2+ 100 mM) is “did inhibit”. Besides, the “Effect of dNTPs on nuclease activity” value in the data set with calf thymus dsDNA [2] (dNTPs 0.05 to 1 mM) is “little inhibition”. Also, in the data set with calf thymus dsDNA [2] (setting [5]), the “Activity left after heating at 80° C. for 60 minutes (1 h)” value is reported as “more than 5%” and the “Activity left after heating at 100° C. for 20 minutes” value was “more than 5%”. Also, the Optimum temperature with calf thymus dsDNA [2] (examined within 0 to 100° C.) is 35-40 °C. The “Effect of glycerol 5%-30% on nuclease activity” value in the data set with calf thymus dsDNA [2] (glycerol 5%-30%) is listed as “no effect”. In addition, in the data set on calf thymus dsDNA [2] (in words), the “Nuclease activity after heating at 80° C. for 1 h” value was “active” and the “Nuclease activity after heating at 100° C. for 20 min” value is given as “active”. Also, the “Best activator metal ion at 2 mM” value in the data set on calf thymus dsDNA [2] (metal ion 2 mM) was “Mg^2+”. Besides, in the data set on calf thymus dsDNA [2] (metal ion 10 mM), the “Best activator metal ions at 10 mM” value is “Mg^2+ and Mn^2+”. In the data set with calf thymus dsDNA [2] (pH 7.24), the “Activity retained at pH 7.24” value is “greater than 75%”. Further, in the data set on calf thymus dsDNA [2] (urea lower than 8 M), the “Nuclease activity at urea concentration lower than 8 M” value is reported as “still had some nuclease activity”. Further, in the data set with calf thymus dsDNA [3], the “Nuclease activity in induced recombinant bacteria” value is “nuclease activity detected” and the “Nuclease activity in non-induced recombinant bacteria” value was “weak nuclease activity”. The “Nuclease activity on ssDNA with metal ion” value in the data set on calf thymus ssDNA is given as “high nuclease activity”. Further, in the data set with RNA (setting [4]), the “Nuclease activity on RNA with metal ion” value was “high nuclease activity”. The “Nuclease activity on RNA without addition of metal ions” value in the data set with RNA (no metal ion added) was “obligate requirement of divalent Mg^2+, Mn^2+, Co^2+”.

B2: Nucyep2: recombinant Nucyep with peptide signal, without stop codon, with C-terminal 6×His-tag; SEQ ID NO. 10 (protein)
chain: MAKFNLIKLLPVLLLTACTTTDHSSAPKTILSAPTVTEQNLPAAAIDNCLVGCPTGGSDQTVIRDVYTLNNNSHTKFANWVAYKVTKSSQASNHPRKWAQDPDLPDSDTLAPADYTGANQKLAVDRGHQAPLSLLAGNEDSQALNYLSNITPQKAALNQGAWVRLEDQERNLANRPDVTAVYSVTGPLFERHIATLPAKPTVEIPSGYWKIIFIGTSPDKGQYAAFLMDQNTAKSANFCDYQVNVDTIEAKTNPQLTIWSNLPADVAQIIKSQKGTLAQTIGCDGSNSSSVDKLAAALEHHHHHH
modifications: C-terminal 6xHis tag; Yersinia enterocolitica sub. paleartica
Regarding B2, in the data set on calf thymus dsDNA [3], the “Nuclease activity in induced recombinant bacteria” value is “nuclease activity detected” and the “Nuclease activity in non-induced recombinant bacteria” value was “weak nuclease activity”.
